System: Mycobacterium tuberculosis H37Rv growth inhibition, no glycerol
Test: Mycobacterium tuberculosis H37Rv growth inhibition, no glycerol, confirmatory dose response (AID 449764);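 also: growth read after 7 days of incubation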
Settings: measured here: IC90 growth inhibition

Compound: O=[N+]([O-])c1cc([N+](=O)[O-])c(-c2cnn(-c3ccccc3)c2)c([N+](=O)[O-])c1
- IC90: 11.9 µM
